# Publication PMC8228323, “Biodegradation of L-Valine Alkyl Ester Ibuprofenates by Bacterial Cultures” (Materials, 2021)
# Test system: active sludge (bacterial cultures)
# Experiment: Degradation by active sludge indicated by consumption of the tested compounds (HPLC of test vessel)
# Conditions: for Degradation rate by active sludge: at 29–68 days; for Degradation rate: between 1–28 days; for Amount of compound degraded: within 68 days; for Amount of compound degraded / Degradation of the compound: active sludge; for Degradation of the compound: within / after 68 days
Structure (SMILES),Degradation rate by active sludge,Degradation rate,Amount of compound degraded,Degradation of the compound,Detection of the test compound in the test vessel by HPLC (after 28 days of biodegradation)
"CC(C)Cc1ccc(C(C)C(=O)O)cc1 (stereo not shown) [IBU, ibuprofen]",≥ 1 %/day,2.3%,52.71 mg/L,~100%,
"CCCCCCCCCCCCOS(=O)(=O)[O-].[Na+] [SDS, sodium dodecyl sulfate, reference compound]",,3.1%,84.11 mg/L,~100%,
CC(C)Cc1ccc(C(C)C(=O)O)cc1.CCCCCOC(=O)[C@@H](N)C(C)C (stereo not shown) [[ValOAm][IBU]],≤ 1 %/day,2.1%,,89.0%,could still be detected
CC(C)Cc1ccc(C(C)C(=O)O)cc1.CCCCOC(=O)[C@@H](N)C(C)C (stereo not shown) [[ValOBu][IBU]],≤ 1 %/day,2.1%,56.87 mg/L,~100%,
CC(C)Cc1ccc(C(C)C(=O)O)cc1.CCOC(=O)[C@@H](N)C(C)C (stereo not shown) [[ValOEt][IBU]],≥ 1 %/day,2.3%,57.58 mg/L,~100%,
CC(C)Cc1ccc(C(C)C(=O)O)cc1.CCCCCCCOC(=O)[C@@H](N)C(C)C (stereo not shown) [[ValOHept][IBU]],≤ 1 %/day,1.9%,,74.0%,
CC(C)Cc1ccc(C(C)C(=O)O)cc1.CCCCCCOC(=O)[C@@H](N)C(C)C (stereo not shown) [[ValOHex][IBU]],≤ 1 %/day,2.0%,,75.0%,
CC(C)Cc1ccc(C(C)C(=O)O)cc1.COC(=O)[C@@H](N)C(C)C (stereo not shown) [[ValOMe][IBU]],≥ 1 %/day,3.4%,58.57 mg/L,~100%,
CC(C)Cc1ccc(C(C)C(=O)O)cc1.CCCCCCCCOC(=O)[C@@H](N)C(C)C [[ValOOct][IBU]],≤ 1 %/day,1.4%,,42.0%,
CC(C)Cc1ccc(C(C)C(=O)O)cc1.CCCOC(=O)[C@@H](N)C(C)C (stereo not shown) [[ValOPr][IBU]],≥ 1 %/day,2.5%,57.38 mg/L,~100%,
CC(C)Cc1ccc(C(C)C(=O)O)cc1.CC(C)OC(=O)[C@@H](N)C(C)C (stereo not shown) [[ValOiPr][IBU]],≥ 1 %/day,2.8%,57.38 mg/L,~100%,
